Test results: article PMC8950151, “Synthesis and Evaluation of the Antifungal and Toxicological Activity of Nitrofuran Derivatives” (Pharmaceutics, 2022)

Tests used:
[1] = tested on: MRC-5 (ATCC CCL-171) pulmonary fibroblast cell line; settings: for Calculated SI C. albicans: MRC-5 IC50 versus MIC90 of C. albicans; for Calculated SI C. glabrata: MRC-5 IC50 versus MIC90 of C. glabrata; for Calculated SI C. krusei: MRC-5 IC50 versus MIC90 of C. krusei; for Calculated SI C. neoformans: MRC-5 IC50 versus MIC90 of C. neoformans; for Calculated SI T. rubrum: MRC-5 IC50 versus MIC90 of T. rubrum
[2] = tested on: A549 (ATCC CCL-185) lung epithelial cell line; test: Cytotoxicity assay in monolayer by resazurin colorimetric method; type: cell-based, human; settings: for Calculated SI C. albicans: A549 IC50 versus MIC90 of C. albicans; for Calculated SI C. glabrata: A549 IC50 versus MIC90 of C. glabrata; for Calculated SI C. krusei: A549 IC50 versus MIC90 of C. krusei; for Calculated SI C. neoformans: A549 IC50 versus MIC90 of C. neoformans; for Calculated SI P. brasiliensis: A549 IC50 versus MIC90 of P. brasiliensis; for Calculated SI T. mentagrophytes: A549 IC50 versus MIC90 of T. mentagrophytes; for Calculated SI T. rubrum: A549 IC50 versus MIC90 of T. rubrum

| SMILES | Calculated SI C. albicans [1] | Calculated SI C. glabrata [1] | Calculated SI C. krusei [1] | Calculated SI C. neoformans [1] | Calculated SI T. rubrum [1] | Calculated SI C. albicans [2] | Calculated SI C. glabrata [2] | Calculated SI C. krusei [2] | Calculated SI C. neoformans [2] | Calculated SI P. brasiliensis [2] | Calculated SI T. mentagrophytes [2] | Calculated SI T. rubrum [2] |
| --- | --- | --- | --- | --- | --- | --- | --- | --- | --- | --- | --- | --- |
| CSc1ccc(C(=O)/C=C/c2ccc([N+](=O)[O-])o2)cc1 [Compound 13] | 0.01 | 0.01 | 0.01 | 0.01 | 4.23 | 0.07 | 0.07 | 0.07 | 0.07 | 18.26 | 18.26 | 18.26 |
| O=C(/C=C/c1ccc([N+](=O)[O-])o1)c1ccc(Cl)cc1Cl [Compound 16, (E)-1-(2,4-dichlorophenyl)-3-(5-nitrofuran-2-yl)prop-2-en-1-one] | 0.11 | 0.11 | 0.11 | 0.11 | 3.83 | 0.14 | 0.14 | 0.14 | 0.14 | 17.96 | 4.56 | 4.56 |
| O=C(/C=C/c1ccc([N+](=O)[O-])o1)c1ccccc1 [Compound 8] | 0.85 | 0.85 | 0.02 | 0.21 | 6.79 | 6.89 | 6.88 | 0.21 | 1.72 | 55.46 | 54.89 | 54.89 |
| CS(=O)(=O)c1ccc(C(=O)/C=C/c2ccc([N+](=O)[O-])o2)cc1 [Compound 15, (E)-1-(4-(methylsulfonyl)phenyl)-3-(5-nitrofuran-2-yl)prop-2-en-1-one] | 0.04 | 0.04 | 0.04 | 0.04 | 1.47 | 0.13 | 0.13 | 0.13 | 0.13 | 8.77 | 4.38 | 4.38 |
| O=C(NCCc1c[nH]c2ccccc12)c1ccc([N+](=O)[O-])o1 [Compound 7] | 0.28 | 0.28 | 0.28 | 1.13 | 0.56 | 0.03 | 0.03 | 0.03 | 0.13 | 4.40 | 0.06 | 0.06 |
| O=C(/C=C/c1ccc([N+](=O)[O-])o1)c1ccc(F)cc1 [Compound 9] | 3.02 | 1.51 | 0.18 | 3.02 | 48.19 | 1.49 | 0.74 | 0.09 | – | 48.77 | 12.00 | 23.88 |
| O=C(/C=C/c1ccc([N+](=O)[O-])o1)c1ccc(Br)cc1 [Compound 11] | 0.50 | 0.25 | 0.25 | 0.25 | 8.02 | 0.09 | 0.04 | 0.04 | 0.04 | 12.61 | 1.56 | 1.56 |
| O=C(/C=C/c1ccc([N+](=O)[O-])o1)c1ccc(-n2ccnc2)cc1 [Compound 14] | 1.71 | – | 1.71 | 6.87 | 13.74 | 2.14 | – | 2.14 | 8.57 | 17.14 | 17.14 | 17.14 |
| COc1ccc(C(=O)/C=C/c2ccc([N+](=O)[O-])o2)cc1 [Compound 12] | 0.91 | 0.91 | 0.91 | 0.91 | 232.65 | 1.00 | 1.00 | 1.00 | – | 64.10 | 128.20 | 255.10 |
| O=C(/C=C/c1ccc([N+](=O)[O-])o1)c1ccc(Cl)cc1 [Compound 10] | 0.86 | 0.86 | 0.86 | 0.86 | 55.23 | 0.15 | 0.15 | 0.15 | 0.15 | 39.86 | 9.91 | 9.91 |
| CN(C)CCCNC(=O)c1ccc([N+](=O)[O-])o1 [Compound 6] | 0.06 | 0.06 | 0.06 | 0.06 | 0.06 | 0.05 | 0.05 | 0.05 | 0.05 | 0.42 | 0.05 | 0.05 |
| O=C(NCc1ccccn1)c1ccc([N+](=O)[O-])o1 [Compound 4] | 0.54 | 0.54 | 0.54 | 8.66 | 1.08 | 0.11 | 0.11 | 0.11 | – | – | 0.94 | 0.23 |
| O=C(NCCc1ccccn1)c1ccc([N+](=O)[O-])o1 [Compound 3, 5-nitro-N-(2-(pyridin-2-yl)ethyl)furan-2-carboxamide] | 1.00 | 1.00 | 1.00 | 8.00 | 2.00 | 0.92 | 0.92 | 0.92 | 7.39 | 481.66 | 3.69 | 1.84 |
| O=C(NCCCn1ccnc1)c1ccc([N+](=O)[O-])o1 [Compound 2, N-(3-(1H-imidazol-1-yl)propyl)-5-nitrofuran-2-carboxamide] | 0.36 | 0.36 | 0.36 | 0.36 | 0.72 | 0.19 | 0.19 | 0.19 | 0.19 | 1.57 | 0.39 | 0.39 |
| O=C(/C=C/c1ccccc1)OCc1ccc([N+](=O)[O-])o1 [Compound 1] | 61.66 | 30.79 | 7.69 | 7.69 | 0.96 | 64.10 | 32.01 | 8.00 | 8.00 | 64.10 | 16.02 | 1.00 |
| O=C(NCCCc1ccccc1)c1ccc([N+](=O)[O-])o1 [Compound 5] | 0.31 | 0.31 | 0.63 | 10.19 | 2.54 | 0.24 | 0.24 | 0.48 | – | 1.92 | 0.96 | 1.92 |
